Publication PMC8550092
Construct, isoform or probe ends are uncertain for at least one entry.

By UniProt entry, the sequences of proteins in these tests, tags left out. Where a name states a change or a piece, a line headed by the entry shows the natural chain unless it says otherwise.
UniProt Q5HN50: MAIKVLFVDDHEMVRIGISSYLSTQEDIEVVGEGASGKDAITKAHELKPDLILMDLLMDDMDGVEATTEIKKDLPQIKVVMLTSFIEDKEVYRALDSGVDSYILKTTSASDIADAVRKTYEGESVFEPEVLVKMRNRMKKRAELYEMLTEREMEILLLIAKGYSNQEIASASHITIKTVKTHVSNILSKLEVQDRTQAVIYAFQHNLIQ

How the values were obtained:
[1] = molecular target: VraR-P (phosphorylated His-tagged VraR) (Staphylococcus epidermidis strain 1457 (SE1457)) (UniProt Q5HN50); test: EMSA; settings: VraR-P 0.3-1.2 uM, Roche DIG gel shift kit (buffer, salt and pH not stated), 25 C, 20 min, 6% nondenaturing polyacrylamide gel, recombinant protein, residues 1-209, label: digoxigenin (terminal transferase), probe letters rebuilt from the primers and the genome
[2] = molecular target: VraR-P (phosphorylated His-tagged VraR) (Staphylococcus epidermidis strain 1457 (SE1457)) (UniProt Q5HN50); test: competition with a labelled probe; settings: 125-fold excess vs labeled p-vra, 1.2 uM VraR-P, blocked complex; recombinant protein; residues 1-209; probe letters rebuilt from the primers and the genome

Sequence	binding result [1]	further results
ATTCTAAAATCTCCCCCTTATTCAATTTTCTAAAAATATATTACAGAAAAATTAAGTTAAAATTACAAATATTACTGTTTCAGTATAACAAC (double strand) [p-ica 3]	binds	–
ATTCTAAAATCTCCCCCTTATTCAATTTTCTAAAAATATATTACAGAAAAATTAAGTTAAAATTACAAATATTACTGTTTCAGTATAACAACATTCTATTGCAAATTGAAATACTTTCGATTAGCATATGCTTTACAACCTAACTAACGAAAGGTAGGTGAAAAAATGCA (double strand) [p-ica 2]	binds	–
ATTCTAAAATCTCCCCCTTATTCAATTTTCTAAAAATATATTACAGAAAAATTAAGTTAAAATTACAAATATTACTGTTTCAGTATAACAACATTCTATTGCAAATTGAAATACTTTCGATTAGCATATGCTTTACAACCTAACTAACGAAAGGTAGGTGAAAAAATGCATGTATTTAACTTTTTACTTTTCTATCCAATTTTTATGTCAATTTACTGGATAGTAGGATCGATTTACTATTTTTTTATTAAAGAAAAACCCTTTAATCGATCATTGTTAGTAAAATCTGAACATCAACAAG (double strand) [p-ica 1]	binds	–
TGAAACTAAAGATAAAAGTTATGTCGCTCAAATTGAACACACGGTTATAGTTACAAAAGATGGTCCGTTACTTACAACTAAGATTGATGATTAATTAAATATTAGTAATTCAAATTAGAAATTAAGATTATGATTTACTTTTTTCATATCTCGTCAGACTAAAGTATGAAGCATATATGGTTCCGAAGCCTATTTCATTAGGTTTCGGAATTGTTTTATAATAAAGCTTAATCAGTGACGAGGTGATATCATTGAATATTTTAGATTTATATTTACAACAA (double strand) [p-vra unlabeled competitor]	–	binding result [2]: binds
TGAAACTAAAGATAAAAGTTATGTCGCTCAAATTGAACACACGGTTATAGTTACAAAAGATGGTCCGTTACTTACAACTAAGATTGATGATTAATTAAATATTAGTAATTCAAATTAGAAATTAAGATTATGATTTACTTTTTTCATATCTCGTCAGACTAAAGTATGAAGCATATATGGTTCCGAAGCCTATTTCATTAGGTTTCGGAATTGTTTTATAATAAAGCTTAATCAGTGACGAGGTGATATCATTGAATATTTTAGATTTATATTTACAACAA (double strand) [p-vra]	–	binding result ([1]; dose-dependent): binds
